Measurements as given in publication PMC7868322, “Rational Design of A Novel Small-Molecule HIV-1 Inactivator Targeting Both gp120 and gp41 of HIV-1” (Frontiers in Pharmacology, 2021).
No dose or concentration is given here for some results.

Experiments:
HIV-1 IIIB (X4) = experiment: Inhibition of HIV-1 infection (p24 ELISA); assay type: cell-based
HIV-1 Bal (R5) = experiment: Inhibition of HIV-1 infection (p24 ELISA); assay type: cell-based; settings: IC50 alone vs in mixture
[1] = average on IIIB and Bal infection

CC1(C)CC(NC(=O)C(=O)Nc2ccc(Cl)c(F)c2)CC(C)(C)N1 [FD016, N^1-(4-Chloro-3-Fluorophenyl)-N^2-(2,2,6,6-Tetramethylpiperidin-4-yl) Oxalamide]
Dose reduction (FD016) (HIV-1 IIIB (X4); IIIB, IC50 alone vs in mixture): 3.69 fold | Dose reduction (FD016) (HIV-1 Bal (R5)): 10.31 fold

O=C(O)c1cc(-c2ccc(/C=C3\SC(=S)N(CCc4ccc(O)cc4)C3=O)o2)ccc1Cl [FD017, (Z)-2-Chloro-5-(5-((3-(4-Hydroxyphenethyl)-4-oxo-2-Thioxothiazolidin-5-ylidene)methyl)furan-2-yl)benzoic Acid]
Dose reduction (FD017) (HIV-1 IIIB (X4); IIIB, IC50 alone vs in mixture): 3.05 fold | Dose reduction (FD017) (HIV-1 Bal (R5)): 1.63 fold

CC1(C)CC(NC(=O)C(=O)Nc2ccc(Cl)c(F)c2)CC(C)(C)N1C(=O)COc1ccc(CCN2C(=O)/C(=C/c3ccc(-c4ccc(Cl)c(C(=O)O)c4)o3)SC2=S)cc1 [FD028, (Z)-2-Chloro-5-(5-((3-(4-(2-(4-(2-((4-Chloro-3-Fluorophenyl)amino)-2-oxoacetamido)-2,2,6,6-Tetramethylpiperidin-1-yl)-2-oxoethoxy)phenethyl)-4-oxo-2-Thioxothiazolidin-5-ylidene)methyl)furan-2-yl)benzoic Acid]
Average inhibitory activity relative to FD016 (HIV-1 IIIB (X4); [1]): 57 fold | Average inhibitory activity relative to FD017 (HIV-1 IIIB (X4); [1]): 6 fold
